Anti-infective test results gathered from many reports (values: NIAID ChemDB through PubChem).

All rows: toxicity to cultured cells; cells: OM-10.1; endpoint: CC50

CCn: concentration that lowers growth or viability of the cells by n%. An empty or dashed field is not shown. Neighbouring rows are from separate reports.

Cn1c2ccccc2c(=O)c2c(O)c(O)ccc21 ; value: 7.8 µg/mL
Cn1cc(C(=O)O)c(=O)c2cc(F)c(N3CC=C(c4ccccc4)CC3)c(C(F)(F)F)c21 ; value: >1 µM
COc1ccc2[nH]c3ccccc3c(=O)c2c1OC ; value: 32 µg/mL
O=S(=O)(Cc1c(Cl)c(Cl)c(Cl)c(Cl)c1Cl)c1cccc[n+]1[O-] ; read by: MTT ; value: 5 µg/mL
CCn1cc(C(=O)O)c(=O)c2cc(F)c(N3CCN(c4ccccc4OC)CC3)c(OC(F)F)c21 ; value: >4 µM
Cn1c2ccccc2c(=O)c2c(O)cccc21 ; value: 18 µg/mL
COC(=O)C1=C2Nc3ccccc3[C@@]23CCN2C[C@]4(C[C@@H]5C[C@]67CCO[C@H]6CCC6NC[C@@]8(c9cccc(OC)c9N(C4)[C@@H]58)[C@@H]67)[C@@H]4OCCC4(C1)[C@H]23 ; read by: absorbance ; value: >10 µM
Cn1c2ccccc2c(=O)c2c(O)cccc21 ; value: 18 µg/mL
COc1ccc2c(c1OC)c(=O)c1ccccc1n2C ; value: 28 µg/mL
Cn1c2ccccc2c(=O)c2ccccc21 ; value: 16 µg/mL
N#Cc1c(C2CCNCC2)cc(-c2c(O)cccc2OCC2CC2)nc1N ; read by: WST ; value: 15 µM
Cn1cc(C(=O)O)c(=O)c2cc(F)c(N3CC=C(c4ccccc4)CC3)c(C(F)(F)F)c21 ; value: 1.53 µM
COc1cc(OC)c2c(=O)c3ccccc3n(C)c2c1 ; value: 8 µg/mL
COc1cccc2[nH]c3ccccc3c(=O)c12 ; value: 17 µg/mL
COc1ccc2[nH]c(=O)c(CN(Cc3cccnc3)S(=O)(=O)c3cccc4nsnc34)cc2c1 ; read by: MTT ; value: >10 µM

Repeating the final 2 entries:

| structure | read by | value |
|---|---|---|
| COc1cccc2[nH]c3ccccc3c(=O)c12 |  | 17 µg/mL |
| COc1ccc2[nH]c(=O)c(CN(Cc3cccnc3)S(=O)(=O)c3cccc4nsnc34)cc2c1 | MTT | >10 µM |